Results published in patent US7312060.

Biological target: α-hemolysin (α-HL), wild type, with C-terminal His-6 tag (from plasmid pT7-WT-H6-αHL) (UniProt P09616)

trypsin (pure, Sigma Chemicals)
mobility shift in SDS-capillary gel electrophoresis (proteolysis): it showed peaks eluting earlier (13, 14 and 15 min) and major peak at 21 min
